Laboratory results taken from paper PMC9312377.

Experiments:
Assay in all cases: Modified thermofluor assay, BXA-rPAN thermal stabilization
[1] = biological target: recombinant A(H1N1)pdm09 PAN E23G (Influenza A virus, UniProt C3W5S0, DEL51-57/DEL61-72/E23G/E59G); details: for SYPRO Orange signal: 37uM BXA
[2] = tested on: recombinant A(H3N2) PAN E23G
[3] = tested on: recombinant A(H3N2) PAN I38T
[4] = tested on: recombinant A(H3N2) PAN E23G+I38T

O=C1c2c(O)c(=O)ccn2N([C@@H]2c3ccccc3SCc3c2ccc(F)c3F)[C@@H]2COCCN12
SYPRO Orange signal ([1]; 32 °C): 11051 RFU and 11753.3 RFU and 10442.9 RFU | SYPRO Orange signal ([1]; 33 °C): 11109.2 RFU and 11797.6 RFU and 10595 RFU | SYPRO Orange signal ([1]; 34 °C): 11875.6 RFU and 11710 RFU and 11644.9 RFU | SYPRO Orange signal ([1]; 35 °C): 12461.9 RFU and 11871.8 RFU and 11604.2 RFU | SYPRO Orange signal ([1]; 36 °C): 12266 RFU and 11981.8 RFU and 11480.6 RFU | SYPRO Orange signal ([1]; 37 °C): 12699.9 RFU and 12213.9 RFU and 11760.1 RFU | SYPRO Orange signal ([1]; 38 °C): 12009.8 RFU and 11767.7 RFU and 11591.2 RFU | SYPRO Orange signal ([1]; 39 °C): 11764.1 RFU and 12086 RFU and 11749.7 RFU | SYPRO Orange signal ([1]; 40 °C): 11829.9 RFU and 11723.1 RFU and 12006.4 RFU | SYPRO Orange signal ([1]; 41 °C): 11905.7 RFU and 12013.1 RFU and 11760.3 RFU | SYPRO Orange signal ([1]; 42 °C): 12222.1 RFU and 11702 RFU and 11895.1 RFU | SYPRO Orange signal ([1]; 43 °C): 12328.5 RFU and 12349.6 RFU and 11431.8 RFU | SYPRO Orange signal ([1]; 44 °C): 11940.1 RFU and 12036.8 RFU and 11250.2 RFU | SYPRO Orange signal ([1]; 45 °C): 11722 RFU and 12194 RFU and 11517.2 RFU | SYPRO Orange signal ([1]; 46 °C): 11846.4 RFU and 12595 RFU and 11862.3 RFU | SYPRO Orange signal ([1]; 47 °C): 12267.5 RFU and 12636.6 RFU and 11943.9 RFU | SYPRO Orange signal ([1]; 48 °C): 12316.5 RFU and 13103.6 RFU and 12158 RFU | SYPRO Orange signal ([1]; 49 °C): 12462 RFU and 13412 RFU and 11917.8 RFU | SYPRO Orange signal ([1]; 50 °C): 12398.7 RFU and 13609.5 RFU and 12138.9 RFU | SYPRO Orange signal ([1]; 51 °C): 12905.9 RFU and 13855.7 RFU and 12166.3 RFU | SYPRO Orange signal ([1]; 52 °C): 13016.6 RFU and 13797.2 RFU and 12064.3 RFU | SYPRO Orange signal ([1]; 53 °C): 12958.2 RFU and 13808 RFU and 11956.7 RFU | SYPRO Orange signal ([1]; 54 °C): 12744.2 RFU and 13945 RFU and 12022.8 RFU | SYPRO Orange signal ([1]; 55 °C): 13066.8 RFU and 14197.7 RFU and 12314 RFU | SYPRO Orange signal ([1]; 56 °C): 13349.2 RFU and 14428.6 RFU and 12371 RFU | SYPRO Orange signal ([1]; 57 °C): 13820.6 RFU and 14300.8 RFU and 12565.4 RFU | SYPRO Orange signal ([1]; 58 °C): 13762.4 RFU and 14677.4 RFU and 12603.2 RFU | SYPRO Orange signal ([1]; 59 °C): 13980.7 RFU and 15526.4 RFU and 12994.8 RFU | SYPRO Orange signal ([1]; 60 °C): 13970.3 RFU and 15543.5 RFU and 12819.5 RFU | SYPRO Orange signal ([1]; 61 °C): 14242.9 RFU and 15468.2 RFU and 12797.3 RFU | SYPRO Orange signal ([1]; 62 °C): 14021.1 RFU and 15976.1 RFU and 13547.6 RFU | SYPRO Orange signal ([1]; 63 °C): 14521.4 RFU and 16694.9 RFU and 13339.6 RFU | SYPRO Orange signal ([1]; 64 °C): 15307.2 RFU and 17825.7 RFU and 14343.9 RFU | SYPRO Orange signal ([1]; 65 °C): 16129.8 RFU and 18625.3 RFU and 14560.6 RFU | SYPRO Orange signal ([1]; 66 °C): 16257.7 RFU and 19875.6 RFU and 15467.2 RFU | Tm (°C) with BXA ([1]; A(H1N1)pdm09 PAN E23G 2 μM, BXA 37 μM): 76 °C and 76.0 ± 0.1 °C | ΔTm (°C) ([1]; A(H1N1)pdm09 PAN E23G, DMSO vs BXA 37 μM): 23.1 ± 0.3 °C | SYPRO Orange signal ([1]; Panel A, E23G, 67 °C): 17554.3 RFU and 21131.6 RFU and 16645 RFU | SYPRO Orange signal ([1]; Panel A, E23G, 68 °C): 18515.2 RFU and 22200.8 RFU and 18408.1 RFU | SYPRO Orange signal ([1]; Panel A, E23G, 69 °C): 19220.1 RFU and 23669.8 RFU and 19731.4 RFU | SYPRO Orange signal ([1]; Panel A, E23G, 70 °C): 20383.4 RFU and 24941.5 RFU and 20685.3 RFU | SYPRO Orange signal ([1]; Panel A, E23G, 71 °C): 22540.5 RFU and 26133.5 RFU and 22626.2 RFU | SYPRO Orange signal ([1]; Panel A, E23G, 72 °C): 25470.5 RFU and 28579.7 RFU and 25185.7 RFU | SYPRO Orange signal ([1]; Panel A, E23G, 73 °C): 31873.5 RFU and 35905.8 RFU and 32061.2 RFU | SYPRO Orange signal ([1]; Panel A, E23G, 74 °C): 45292.2 RFU and 50174.9 RFU and 44675.6 RFU | SYPRO Orange signal ([1]; Panel A, E23G, 75 °C): 68475.2 RFU and 75516.3 RFU and 67310.1 RFU | SYPRO Orange signal ([1]; Panel A, E23G, 76 °C): 104853 RFU and 113188 RFU and 102292 RFU | SYPRO Orange signal ([1]; Panel A, E23G, 77 °C): 149989 RFU and 159075 RFU and 146651 RFU | SYPRO Orange signal ([1]; Panel A, E23G, 78 °C): 189742 RFU and 197904 RFU and 186592 RFU | SYPRO Orange signal ([1]; Panel A, E23G, 79 °C): 212787 RFU and 217414 RFU and 209934 RFU | SYPRO Orange signal ([1]; Panel A, E23G, 80 °C): 220286 RFU and 224449 RFU and 218367 RFU | SYPRO Orange signal ([1]; Panel A, E23G, 81 °C): 220094 RFU and 222208 RFU and 217303 RFU | SYPRO Orange signal ([1]; Panel A, E23G, 82 °C): 215136 RFU and 217076 RFU and 213878 RFU | SYPRO Orange signal ([1]; Panel A, E23G, 83 °C): 211339 RFU and 212409 RFU and 210113 RFU | SYPRO Orange signal ([1]; Panel A, E23G, 84 °C): 206268 RFU and 207691 RFU and 205828 RFU | SYPRO Orange signal ([1]; Panel A, E23G, 85 °C): 200786 RFU and 203730 RFU and 200512 RFU | SYPRO Orange signal ([1]; Panel A, E23G, 86 °C): 195141 RFU and 204418 RFU and 195689 RFU | SYPRO Orange signal ([1]; Panel A, E23G, 87 °C): 188066 RFU and 207015 RFU and 191621 RFU | SYPRO Orange signal ([1]; Panel A, E23G, 88 °C): 183863 RFU and 199446 RFU and 186050 RFU | SYPRO Orange signal ([1]; Panel A, E23G, 89 °C): 177710 RFU and 188123 RFU and 180819 RFU | SYPRO Orange signal ([1]; Panel A, E23G, 90 °C): 171586 RFU and 182456 RFU and 176246 RFU | SYPRO Orange signal ([1]; Panel A, E23G, 91 °C): 163514 RFU and 178817 RFU and 172008 RFU | SYPRO Orange signal ([1]; Panel A, E23G, 92 °C): 159610 RFU and 173319 RFU and 166826 RFU | SYPRO Orange signal ([1]; Panel A, E23G, 93 °C): 151215 RFU and 165739 RFU and 161512 RFU | SYPRO Orange signal ([1]; Panel A, E23G, 94 °C): 148685 RFU and 156746 RFU and 157154 RFU | SYPRO Orange signal ([1]; Panel A, E23G, 95 °C): 141997 RFU and 152694 RFU and 151570 RFU | SYPRO Orange signal ([1]; Panel A, E23G, 96 °C): 136709 RFU and 149275 RFU and 145739 RFU | SYPRO Orange signal ([1]; Panel A, E23G, 97 °C): 134511 RFU and 143908 RFU and 140967 RFU | SYPRO Orange signal ([1]; Panel A, E23G, 98 °C): 127272 RFU and 135311 RFU and 137303 RFU | SYPRO Orange signal ([1]; Panel A, E23G, 99 °C): 118086 RFU and 122507 RFU and 134718 RFU | Tm (°C) with BXA ([2]; A(H3N2) PAN E23G 2 μM, BXA 37 μM): 74.3 ± 0.3 °C and 74.3 °C | ΔTm (°C) ([2]; A(H3N2) PAN E23G, DMSO vs BXA 37 μM): 23.0 ± 0.2 °C | Tm (°C) with BXA ([3]; A(H3N2) PAN I38T 2 μM, BXA 37 μM): 70 °C and 70.0 ± 0.1 °C | ΔTm (°C) ([3]; A(H3N2) PAN I38T, DMSO vs BXA 37 μM): 16 °C and 16.1 ± 0.2 °C | Tm (°C) with BXA ([4]; A(H3N2) PAN E23G+I38T 2 μM, BXA 37 μM): 64.2 ± 0.1 °C and 64.2 °C | ΔTm (°C) ([4]; A(H3N2) PAN E23G+I38T, DMSO vs BXA 37 μM): 14.0 ± 0.3 °C

Where “and” joins values, the source holds several entries; their conditions need not be identical. Identical values can stand only once.
